Compound potency records, mixed from different reports. Data source: NIAID ChemDB in PubChem.

Shared fields: growth or infection tests; agent: HIV-1; endpoint: fold resistance

Lines come from different laboratories, so protocols vary.

SMILES,cell line,method,strain,changes,value
Nc1ncnc2c1ncn2CC(CF)OCP(=O)(O)O,CEM,syncytia,IIIB TSAO-T(RT-E138K),RT-E138K,1.33
Cc1cn([C@H]2C[C@H](N=[N+]=[N-])[C@@H](CO)O2)c(=O)[nH]c1=O,HeLa,luciferase,Recombinant,RT-M41L S68N G112S M184V,0.1
CC(=O)c1ccc(C)cc1NC(C(N)=O)c1c(Cl)cccc1Cl,MAGI,MTT,IIIB,RT-V189I,4.89
Nc1ccn([C@H]2CC[C@@H](CO)O2)c(=O)n1,MT-4,p24,IIIB 3TC (RT-M184V),RT-M184V,5.56
Cc1cc(O)cc(S(=O)(=O)c2cccc(N)c2C#N)c1,HeLa + HELA CD4+,β-galactosidase,,RT-Y181C,571
CCc1c(Sc2ccccn2)n(COCc2ccccc2)c(=O)[nH]c1=O,CEM + CEM-SS,cytopathic effect / XTT,NL4-3,RT-Y188C,133
Nc1nc2c(ncn2[C@H]2CC[C@@H](CO)O2)c(=O)[nH]1,CEM,syncytia,IIIB TIBO R82913 STR-1 (RT L100I Y181C),RT-L100I Y181C,0.7
Nc1nc(NC2CC2)c2ncn([C@H]3C=C[C@@H](CO)C3)c2n1,MT-2,p24,,RT-K103N,1.8
Cc1cn([C@H]2C=C[C@@H](CO)O2)c(=O)[nH]c1=O,MT-2,cytopathic effect / XTT,Site-directed mutant,RT-K65R M184V,1.4
COc1ccc2c(c1)N(C(=O)OC(C)C)[C@@H](CSC)C(=S)N2,H9,p24,B9 (RT L100I V106A G190A),RT-L100I V106A G190A,>1430
O=c1[nH]cnc2c1ncn2[C@H]1CC[C@@H](CO)O1,CEM,syncytia,IIIB,RT-V106A,2.7
O=c1[nH]cnc2c1ncn2[C@H]1CC[C@@H](CO)O1,,,RT-68G 151M 215Y,RT-S68G Q151M T215Y,2
Cc1cc(S(N)(=O)=O)ccc1NC(=O)COc1ccc(Cl)cc1C(=O)c1cc(Cl)cc(C#N)c1,MAGI,β-galactosidase,NNRTI-resistant (RT V106I),RT-V106I,2.1
Cc1nnc(C[C@H](C[C@H](O)CN2CCN(Cc3ccc(-c4ccc(Cl)cc4)o3)C[C@H]2C(=O)NCC(F)(F)F)C(=O)N[C@H]2c3ccccc3OC[C@H]2O)o1,MT-4,p24,K-60 Clinical isolate,PR-L10I M46I I54V Q58E L63P I64V V77I V82F I84V L90M I93L,0.49
CCN(c1nc(F)ccc1NC(C)(C)C)C1CCN(C(=O)c2cc3cc(NC(=O)N4CCN(C)CC4)ccc3[nH]2)CC1,MT-2,p24 / ELISA,IIIB,I401T,0.9
O=c1[nH]cnc2c1ncn2[C@H]1CC[C@@H](CO)O1,MT-2,p24,RT-T69G K103N,1(T69G+K103N),2.1
CC(C)=CCN1Cc2cccc3[nH]c(=S)n(c23)C[C@@H]1C,CEM + CEM-SS,cytopathic effect / XTT,IIIB HEPT-resistant (RT P236L),RT-P236L,1
COc1cc(C(F)(F)F)cc(S(=O)(=O)c2cccc(N)c2C#N)c1,HeLa + HELA CD4+,β-galactosidase,,RT-V106A,0.207
CC(C)CN(C[C@@H](O)[C@H](Cc1ccccc1)NC(=O)O[C@H]1CCOC1)S(=O)(=O)c1ccc(N)cc1,MT-2,p24 / ELISA,IIIB,L441P,0.8
Cc1occc1C(=S)Nc1ccc(Cl)c(/C=N/OC(C)(C)C)c1,CEM + CEM-SS,cytopathic effect / XTT,Calanolide A-resistant (RT T139I),RT-T139I,1.5
CC(C)=CCN1Cc2cc(Cl)cc3[nH]c(=S)n(c23)C[C@@H]1C,CEM,syncytia,IIIB nevirapine-resistant (RT Y181C),RT-Y181C,100
N#Cc1cc2[nH]c3ccccc3c2n(-c2ccc([N+](=O)[O-])cc2)c1=O,HeLa,luciferase,Recombinant,RT-M41L A62V S68N G112S M184V,>1
CC(C)=CCOc1cc(NC(=S)c2ccsc2C)ccc1Cl,CEM,syncytia,IIIB,RT-L100I,278
CC(C)=CCOc1cc(NC(=S)c2ccoc2C)ccc1Cl,CEM,cytopathic effect,A-0 (RT-L100I),RT-L100I,3
CCCc1nnc(C[C@H](C[C@H](O)CN2CCN(C(C)(C)c3ncc(-c4cncc(OC)c4)o3)C[C@H]2C(=O)NCC(F)(F)F)C(=O)N[C@H]2c3ccccc3OC[C@H]2O)o1,MT-4,p24,K-60 Clinical isolate,PR-L10I M46I I54V Q58E L63P I64V V77I V82F I84V L90M I93L,1
C[C@H](Cn1cnc2c(N)ncnc21)OCP(=O)(O)O,MT-2,p24,1391-4 high AZT resistance (RT D67 K70 T215),RT-D67 K70 T215,0.235
Nc1nc(=O)n([C@@H]2CS[C@H](CO)O2)cc1F,MT-2,cytopathic effect / XTT,Site-directed mutant,RT-K65R H221Y,13.6
Nc1nc2c(ncn2[C@H]2CO[C@@H](CO)O2)c(=O)[nH]1,,,,RT-L74V,4.2
Cc1ccc(S(=O)(=O)N(CC(C)C)C[C@@H](O)[C@H](Cc2ccccc2)NC(=O)O[C@H]2CO[C@H]3OCC[C@H]32)cc1,MT-2,p24 / ELISA,IIIB,D437N,1.3
C/C=C/CSc1cc(NC(=S)c2ccsc2C)ccc1Cl,CEM + CEM-SS,cytopathic effect / XTT,NL4-3 (RT Y181C),RT-Y181C,16
O=c1[nH]cnc2c1ncn2[C@H]1CC[C@@H](CO)O1,HELA-CD4+,plaque count,JF14 (RT D67N T69D T215Y),RT-D67N T69D T215Y,1
Cn1c2ccccc2c2c1cc(C#N)c(=O)n2-c1ccc([N+](=O)[O-])cc1,HeLa,luciferase,NRTI resistant,RT-M41L D67N V118I M184V L210W T215Y,4.4
CCCc1nnc(C[C@H](C[C@H](O)CN2CCN(C(C)(C)c3ncc(-c4ccc(F)cc4)o3)C[C@H]2C(=O)NCC(F)(F)F)C(=O)N[C@H]2c3ccccc3OC[C@H]2O)o1,MT-4,p24,V-18 Clinical isolate,PR-L10I M36I N37D M46I R57K L63P A71V G73S I84V L90M I93L,3.9
Cc1cn([C@H]2C[C@H](N=[N+]=[N-])[C@@H](CO)O2)c(=O)[nH]c1=O,CEM + CEM-SS,cytopathic effect / XTT,NL4-3,RT-V108I,8
C=C(C)OC(=O)N1c2cc(Cl)ccc2NC(=S)C1(C)C,H9,p24,B8 (RT K101I K103N Y181C G190A),RT-K101I K103N Y181C G190A,>1670
Cc1nnc(C[C@H](C[C@H](O)CN2CCN(C(C)(C)c3ncc(-c4ccc(Cl)cc4)o3)C[C@H]2C(=O)NCC(F)(F)F)C(=O)N[C@H]2c3ccccc3OC[C@H]2O)o1,MT-4,p24,V-18 Clinical isolate,PR-L10I M36I N37D M46I R57K L63P A71V G73S I84V L90M I93L,0.252
CCc1c(C(=O)c2cc(C)cc(C)c2)n(CC2CC=CC2)c(=O)[nH]c1=O,CEM + CEM-SS,cytopathic effect / XTT,4XAZT/Y181C (RT D67N K70R Y181C T215Y K219Q),RT-D67N K70R Y181C T215Y K219Q,0.15
Nc1nc(=O)n([C@@H]2CS[C@H](CO)O2)cc1F,HT4 + HT4 LacZ-1,plaque count,RTMN(181 184) (RT M41L Y181C M184V T215Y),RT-M41L Y181C M184V T215Y,>5560
Cc1cc(Cl)cc(S(=O)(=O)c2cccc(N)c2C#N)c1,HeLa + HELA CD4+,β-galactosidase,,RT-P236L,1.22
Nc1ccn([C@H]2CC[C@@H](CO)O2)c(=O)n1,MT-4,p24,HXB2D (RT-M184V),RT-M184V,5.56
Cc1cn([C@H]2C[C@H](N=[N+]=[N-])[C@@H](CO)O2)c(=O)[nH]c1=O,CEM,cytopathic effect,A-0 (RT-L100I),RT-L100I,6
CC(C)=CCN1c2cc(Cl)cc3[nH]c(=S)n(c23)C[C@@H]1C,MT-4,,,RT-L74V L100I,4
Cc1occc1C(=S)Nc1ccc(Cl)c(/C=N/OC(C)(C)C)c1,CEM,cytopathic effect,IIIB,RT-L100I,8.13
CC[C@H]1C(=O)Nc2ccc(F)cc2N1C(=O)OC(C)C,CEM,cytopathic effect,J-2 (RT-Y181C),RT-Y181C,9
Cc1cc(Br)cc(S(=O)(=O)c2cccc(N)c2C#N)c1,HeLa + HELA CD4+,β-galactosidase,,RT-V108I Y181C,1180
CC(C)=CCOc1cc(NC(=S)c2ccoc2C)ccc1Cl,CEM,cytopathic effect,IIIB,RT-E138K,2
O=c1[nH]cnc2c1ncn2[C@H]1CC[C@@H](CO)O1,CEM,syncytia,IIIB TIBO R82150-resistant (RT L100I),RT-L100I,3
Cc1cn([C@@H]2O[C@H](CO[Si](C)(C)C(C)(C)C)[C@@]3(OS(=O)(=O)C=C3N)[C@H]2O[Si](C)(C)C(C)(C)C)c(=O)[nH]c1=O,CEM + CEM-SS,cytopathic effect / XTT,UC781-R (RT-Y181C),RT-Y181C,>200
Nc1nc(=O)n([C@H]2CS[C@@H](CO)O2)cc1F,HT4 + HT4 LacZ-1,plaque count,HXB2,RT-M184V,15.8
CCc1c(Sc2ccccn2)n(COCc2ccccc2)c(=O)[nH]c1=O,CEM + CEM-SS,cytopathic effect / XTT,UC10-resistant (RT Y181C K101E),RT-Y181C K101E,>250
Cc1cn([C@H]2C[C@H](N=[N+]=[N-])[C@@H](CO)O2)c(=O)[nH]c1=O,CEM,syncytia,IIIB TIBO R82913 STR-1 (RT L100I Y181C),RT-L100I Y181C,3

Blank or dashed fields: not listed here. Fold resistance: result on the changed form divided by that on wild type.